Measured values from several laboratories, pooled; numbers as filed in NIAID ChemDB.

Common to all: tests on isolated targets; organism: HIV-1; target: Protease; measure: IC50

Two numbers with a dash give a range or band. Lines come from different laboratories, so protocols vary. Blank or dashed fields: not listed here. ICn is the concentration giving n% inhibition.

{"smiles": "CC(=O)NCC(=O)N[C@H](C(=O)N[C@@H](Cc1ccccc1)C(=O)C(F)(F)CCc1ccccc1)C(C)C", "value": "0.0032 µM"}
{"smiles": "O=C(CCCN1CCC(O)(c2ccc(Cl)cc2)CC1)c1ccc(N2CCCCC2)cc1", "value": ">200 µM"}
{"smiles": "CC(=O)C(Cc1c(O)c2cccc(C)c2oc1=O)c1ccccc1", "value": "22 µM"}
{"smiles": "N[C@@H](CCC(=O)N[C@@H](CSN=O)C(=O)NCC(=O)O)C(=O)O", "value": "<30 µM"}
{"smiles": "CC(C)(C)NC(=O)[C@@H]1CCCN1C(=O)[C@@H](O)[C@H](Cc1ccccc1)NC(=O)[C@H](CC(N)=O)NC(=O)c1ccc2ccccc2n1", "value": "<0.05 µM"}
{"smiles": "COc1ccc(S(=O)(=O)N(CC(C)C)CC(O)C(NC(=O)OCc2ccccc2)Sc2ccccc2)cc1", "strain or isolate": "BRU", "value": "0.01–1 µM"}
{"smiles": "CC(=O)CC(c1ccc(Cl)cc1)c1c(O)c2cc(C)ccc2oc1=O", "value": "35 µM"}
{"smiles": "CC(C)[C@@H](C)/C=C/[C@@H](C)[C@H]1CCC2[C@@]34C=C[C@]5(C[C@@H](O)CC[C@]5(C)C3CC[C@@]21C)OO4", "value": ">1000 µM"}
{"smiles": "CC(C)(C)NC(=O)[C@@H]1Cc2ccccc2CN1C(=O)[C@@H](O)[C@H](Cc1ccccc1)NC(=O)[C@H](CC(N)=O)NC(=O)OCc1ccccc1", "value": ">1 µM"}
{"smiles": "O=C(OCC1OC(OCCc2ccccc2)C(O)C(O)C1O)c1cc(O)c(O)c(O)c1", "value": ">200 µg/mL"}
{"smiles": "CCN(CC)c1cccc(C2(O)CCN(CCCC(=O)c3ccc(F)cc3)CC2)c1", "value": ">200 µM"}
{"smiles": "CC(C)(C)NC(=O)[C@@H]1CCCN1C(=O)[C@@H](O)[C@H](Cc1ccccc1)NC(=O)[C@H](CC(N)=O)NC(=O)c1ccc2ccccc2n1", "value": "0.02 µM"}
{"smiles": "CC(C)[C@@H](C)/C=C/[C@@H](C)[C@H]1CC[C@H]2C3=CC=C4C[C@@H](O)CC[C@]4(C)[C@H]3CC[C@]12C", "value": ">1000 µM"}
{"smiles": "CC(=O)N[C@H](CSc1cccc2ccccc12)C(=O)N[C@@H](Cc1ccccc1)[C@H](O)C(=O)N1CSC(C)(C)[C@H]1C(=O)NCc1ccccc1C", "value": "<0.001 µM"}
{"smiles": "CC(=O)C(Cc1c(O)c2cccc(C)c2oc1=O)c1ccc(Cl)cc1", "value": "25 µM"}
{"smiles": "CC(C)(C)NC(=O)[C@@H]1CSCN1C(=O)[C@@H](O)[C@H](Cc1ccccc1)NC(=O)[C@H](CS(C)(=O)=O)NC(=O)COc1cccc2cnccc12", "value": "0.0072 µM"}
{"smiles": "CC(C)(C)NC(=O)[C@@H]1CN(Cc2cc3sccc3s2)CCN1C[C@@H](O)C[C@@H](Cc1ccncc1)C(=O)N[C@H]1c2ccccc2C[C@H]1O", "value": "0.00008 µM"}
{"smiles": "CC(C)(C)NC(=O)[C@@H]1CCCN1C(=O)[C@@H](O)[C@H](Cc1ccccc1)NC(=O)[C@H](CC(N)=O)NC(=O)OCC1c2ccccc2-c2ccccc21", "value": "0.045 µM"}
{"smiles": "CC(C)[C@H](NC(=O)CNS(C)(=O)=O)C(=O)N[C@@H](Cc1ccccc1)C(=O)C(F)(F)CCc1ccccc1", "value": "0.0022 µM"}
{"smiles": "CCCCN(CCCC)c1ccc(C2(O)CCN(CCCC(=O)c3ccc(F)cc3)CC2)cc1", "value": "35 µM"}
{"smiles": "COc1ccc(C(Cc2c(O)c3cccc(C)c3oc2=O)C(C)=O)cc1", "value": "36 µM"}
{"smiles": "C[C@H](CC(=O)C[C@@H](C)[C@H]1C[C@H](O)[C@@]2(C)C3=C(C(=O)C[C@]12C)[C@@]1(C)CCC(=O)C(C)(C)[C@@H]1C[C@@H]3O)C(=O)O", "value": ">1000 µM"}
{"smiles": "C[C@@]12OC(=O)N[C@]1(C)c1ccccc1[C@@H]2C1=CN[C@@](Cc2ccccc2)(C[C@H](O)[C@H](Cc2ccccc2)NC(O)O[C@H]2CCOC2)C1=O", "value": "0.0004 µM"}
{"smiles": "CCC(=O)N[C@@H](CSCCOCCOCCSC[C@H](NC(=O)CC)C(=O)N[C@@H](CC(C)C)C(=O)N[C@@H](Cc1ccccc1)C(N)=O)C(=O)N[C@@H](Cc1ccccc1)C(=O)O", "value": "150 µM"}
{"smiles": "CC[C@H](C)[C@H](NC(=O)[C@@H]1CCCN1C(=O)[C@H](O)[C@H](Cc1ccccc1)NC(=O)[C@H](CC(N)=O)NC(=O)[C@H](Cc1ccccc1)NC(=O)[C@@H](N)CO)C(=O)N[C@H](C(N)=O)C(C)C", "value": "<5 µM"}
{"smiles": "CC(C)(C)NC(=O)[C@H]1N(C(=O)[C@@H](O)[C@H](Cc2ccccc2)NC(=O)[C@H](CC(N)=O)NC(=O)OCc2ccccc2)CSC1(C)C", "value": "0.0035 µM"}
{"smiles": "CN(C)CCNc1ccc(C(=O)CCCN2CCC(O)(c3ccc(Cl)cc3)CC2)cc1", "value": "290 µM"}
{"smiles": "CC(=O)C(Cc1c(O)c2cccc(-c3ccccc3)c2oc1=O)c1ccccc1", "value": "15 µM"}
{"smiles": "CO[C@@H]1C=C2C3CC[C@H]([C@H](C)/C=C/C(C)C(C)C)[C@@]3(C)CCC2[C@@]2(C)CC[C@H](O)C[C@]12O", "value": ">1000 µM"}
{"smiles": "CC(C)[C@H](NC(=O)OCc1ccccc1)C(=O)NCP(=O)(O)CNC(=O)[C@@H](NC(=O)OCc1ccccc1)C(C)C", "value": ">10 µM"}
{"smiles": "CC(=O)C(Cc1c(O)c2cc(C)ccc2oc1=O)c1ccccc1", "value": "160 µM"}
{"smiles": "CC(C)(C)OC(=O)N[C@@H](Cc1ccccc1)[C@@H](O)C[C@@H](Cc1ccccc1)C(=O)N[C@H]1c2ccccc2[C@@H](O)[C@H]1O", "value": "0.0001 µM"}
{"smiles": "CSC[C@H](NC(=O)COc1cccc2cnccc12)C(=O)N[C@@H](Cc1ccccc1)[C@H](O)C(=O)N1CSC(C)(C)[C@H]1C(=O)NC(C)(C)C", "value": "0.0023 µM"}
{"smiles": "Cc1cc(-c2ccc(N=Nc3ccc4c(S(=O)(=O)O)cc(S(=O)(=O)O)c(N)c4c3O)c(C)c2)ccc1N=Nc1ccc2c(S(=O)(=O)O)cc(S(=O)(=O)O)c(N)c2c1O", "value": "0.48 µM"}
{"smiles": "O=c1c(O)c(-c2ccc(O)cc2)oc2cc(O)cc(O)c12", "value": "2 µg/mL"}

Again, the opening 3 rows:

smiles,strain or isolate,value
CC(=O)NCC(=O)N[C@H](C(=O)N[C@@H](Cc1ccccc1)C(=O)C(F)(F)CCc1ccccc1)C(C)C,,0.0032 µM
O=C(CCCN1CCC(O)(c2ccc(Cl)cc2)CC1)c1ccc(N2CCCCC2)cc1,,>200 µM
CC(=O)C(Cc1c(O)c2cccc(C)c2oc1=O)c1ccccc1,,22 µM